In US6709649B1 (Fondazione Centro San Raffaele Del Monte Tabor, priority 1998, dated 2004) one finds crude yield, crude mass and isolated mass data, which are given here for 1 substance.

This series is described as follows: general procedure: Fmoc solid-phase peptide synthesis in flow; solid support providing C-terminus amide, substitution 0.50 mmol/g. Particulars: whole synthesis, scale 0.2 mmol.

As for “Ace-FAYIARPLPRAHIKEYFY-NH2 (N-acetyl, C-amide)”, the crude mass was determined as 0.193 g and the isolated mass was determined as 0.038 g. The crude yield (based on the resin substitution degree) was found to be 42%.
